The subject of this experiment is HIV-1 RT. Briefly: Amp-RT assay, AZT-TP and other NRTI-TPs, reference viruses. Type of experiment: biochemical.

The source holds more than one record for some entries. This list holds those alone. The source may hold further records. Values given together differ for a reason that is not stated; dose, time, organism, isomer or construct need not be as stated for each record.

In the case of `Cc1cn([C@H]2C[C@H](N=[N+]=[N-])[C@@H](CO[P@](=O)(O)O[P@](=O)(O)OP(=O)(O)O)O2)c(=O)[nH]c1=O`, the “fold resistance (IC50) as compared to the mean IC values of WT HIV-1” value reads like this: (MNR HIV-1SUM12 (F77L, F116Y, Q151M)) 22 fold and (22) fold; (MNR HIV-1SUM13 (A62V, V75I, F77L, F116Y, Q151M)) 36 fold and (36) fold.

The values are drawn from US7691572B2, “Method and kit for detecting resistance to antiviral drugs” (priority 1998, dated 2010).
